{"source": "patent US20060111324A1", "about": "“(+)-Ttrans-isomers of (1-phosphonomethoxy-2-alkylcyclopropyl)methyl nucleoside derivatives, process for the preparation of stereoisomers thereof, and use of antiviral agents thereof” (LG Life Sciences, priority 2002, published 2006)", "key": {"[1]": {"tested_on": "HepG2.2.15 cell", "experiment": "Determination of cytotoxicity (MTT) in HepG2.2.15 cells", "conditions": "read-out: CC50 (μM) in HepG2.2.15, 10th day of drug treatment"}, "[2]": {"tested_on": "Hepatitis B Virus (HBV)", "experiment": "Inhibition of hepatitis B virus replication in HepG2.2.15 cells, quantitative PCR of culture medium", "format": "cell-based", "conditions": "read-out: EC50 (μM) in HBV, 10 days drug treatment, HBV DNA in medium by PCR"}}, "note": "Only a part of the results on these compounds is given; other tests are left out.", "data": [{"substance": "({(±)-trans-1-[(6-amino-9H-purine-9-yl)methyl]-2-ethylcyclopropyl}oxy) methylphosphonic acid", "values": [{"measurement": "CC50", "setting": "[1]", "value": "> 1000", "unit": "µM"}, {"measurement": "EC50", "setting": "[2]", "value": "> 30", "unit": "µM"}]}]}
